Compound potency records, mixed from different reports. Data source: NIAID ChemDB in PubChem.

Shared fields: host cell toxicity; cell line: Jurkat cells; read-out: CC50

Lines come from different laboratories, so protocols vary. An empty or dashed field is not shown. CCn: concentration that lowers growth or viability of the cells by n%. a–b is a range or a potency band.

compound,read by,value
COc1c(/C=C/C(=O)c2ccc(-c3ccccc3)cc2)ccc2ccccc12,MTT,3–15 µM
C/C(=N\NC(=O)c1ccccc1)c1cccc(/C(C)=N/NC(=O)c2ccccc2)n1,MTT,>100 µM
Cn1cc(NC(=O)c2cc(NC(=O)c3cc(NC=O)cn3C)cn2C)cc1C(=O)NCCC(=N)N,,20 µM
COc1cc(OC)c2c(=O)cc(-c3ccc(OCCCN4CCN(C)CC4)c(NC(=O)CCCN(C)C)c3)n(C)c2c1,MTT,>100 µM
COC(=O)C1=C2Nc3ccccc3[C@@]23CCN2[C@H](O)[C@]4(CC5C[C@]67CC(=O)O[C@H]6CCC6NC[C@@]8(c9cccc(OC)c9N(C4)[C@@H]58)[C@@H]67)[C@@H]4OCC[C@]4(C1)[C@H]23,absorbance,0.5 µM
COc1ccc(C(=O)/C=C/c2ccc3ccccc3c2OC)cc1,MTT,3–15 µM
COc1cc(OC)c2c(=O)cc(-c3ccc(OCCCN4CCN(C)CC4)c(N)c3)n(C)c2c1,MTT,>100 µM
CCCCC(=O)OC1CC(OC(C)C(C)C(O)C(C)C(O)C(C)C2OC(=O)/C=C/CC(O)CC(O)CC(O)CCC(C)C(O)C[C@@]3(O)O[C@H](CC(O)CC(OC(=O)CC(=O)O)CCCC(O)C4OC4C2C)C[C@H](O)[C@H]3O)OC(C)C1O,,>100 µg/mL
COc1cc2c(cc1OCCC(=O)Nc1cc(C(=O)NCCC(=N)N)n(C)c1)N=C[C@@H]1CCCN1C2=O,,3 µM
CCC(O)[NH+]1CC[NH+](C(O)CC)CC1.[Cl][Pt-2]([Cl])([Cl])([Cl])([Cl])[Cl],fluorescence,>10 µM
Cn1cc(C(=O)O)c(=O)c2cc(N)c(N3CCN(c4ccccn4)CC3)cc21,MTT,56.24 µM
COc1c(/C=C/C(=O)c2cccc([N+](=O)[O-])c2)ccc2ccccc12,MTT,3–15 µM
COc1cc(OC)c2c(=O)cc(-c3ccc(OCCCN)c(N)c3)n(C)c2c1,MTT,>100 µM
COc1ccc2c(Cc3c4ccccc4cc4ccccc34)cncc2c1O,fluorescence,>10 µM
COc1cc2c(cc1OCCC(=O)Nc1cc(C(=O)Nc3cc(C(=O)Nc4cc(C(=O)Nc5cc(C(=O)NCCC(=N)N)n(C)c5)n(C)c4)n(C)c3)n(C)c1)N=C[C@@H]1CCCN1C2=O,,0.75 µM
COc1cc(OC)c2c(=O)cc(-c3ccc(OCCCN4CCCCC4)c(NC(=O)CCCN(C)C)c3)n(C)c2c1,MTT,>100 µM

The first 2 rows once more:

compound	read by	value
COc1c(/C=C/C(=O)c2ccc(-c3ccccc3)cc2)ccc2ccccc12	MTT	3–15 µM
C/C(=N\NC(=O)c1ccccc1)c1cccc(/C(C)=N/NC(=O)c2ccccc2)n1	MTT	>100 µM